This note sets out measurements from patent US20050100554A1 (published 2005).

The test has as its target T1, Human Papillomavirus 1a L2 (Human Papillomavirus 1a, UniProt P03105 1-507).
T1 construct: also called HPV 1a L2; cbe_252041
T1 sequence: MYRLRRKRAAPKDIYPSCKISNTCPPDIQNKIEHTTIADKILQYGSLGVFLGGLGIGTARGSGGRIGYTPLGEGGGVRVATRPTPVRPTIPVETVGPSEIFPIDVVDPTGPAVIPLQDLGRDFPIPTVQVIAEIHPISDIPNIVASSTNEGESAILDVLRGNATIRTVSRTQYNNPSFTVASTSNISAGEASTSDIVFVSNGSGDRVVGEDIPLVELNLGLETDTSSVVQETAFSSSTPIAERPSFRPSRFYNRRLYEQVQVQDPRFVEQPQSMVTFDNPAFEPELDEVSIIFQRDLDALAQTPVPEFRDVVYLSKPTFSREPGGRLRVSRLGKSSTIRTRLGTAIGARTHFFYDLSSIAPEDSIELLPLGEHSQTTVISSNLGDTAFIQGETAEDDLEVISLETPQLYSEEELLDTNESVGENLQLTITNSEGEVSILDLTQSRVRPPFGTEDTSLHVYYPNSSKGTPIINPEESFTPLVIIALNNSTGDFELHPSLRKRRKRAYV
The experiment in a line: Y2H; INT ID 450.

B1: HSPE1 (other)
chain: not shown
notes: also called cbe_4268470
Take B1: the binding result is reported as “binds”.
